As a reminder, the inhibition is the change of the read-out against control, counted positive when it falls.

This is a selection; strong and weak results do not stand in their true shares. Calls of active or inactive are those of the source.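 The calls were made as follows: active = inhibition above the screen-wide mean plus 3 SD (cut at about 13% in these data); inactive = the rest.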

In this assay the test system is HIV-1 integrase (with human LEDGF/p75). Briefly: blockers of LEDGF/p75-dependent integrase strand transfer – biochemical, TR-FRET, high throughput, primary screen (AID 743269).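 Also: signal is the Cy5 over europium emission ratio at 671 and 618 nm; 0% = plate median of compound wells.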 Particulars: TR-FRET IN-LEDGF/p75 DNA integration, Eu/Cy5; at 3.7 µM; active compounds read high. (Time-resolved FRET reads energy transfer from a long-lived donor to a nearby acceptor.)
Consider `O=C(O)c1ccccc1[As](=O)(O)O`, for which the inhibition was inactive: -5.92%.

Regarding `CC(=O)Nc1ccc([As](=O)(O)O)cc1`, the inhibition was inactive: 0.19%.

Turning to `CCCC1OP(N)(=O)OCC1CC` (stereo unspecified), the inhibition is inactive: 0.83%.

Consider `CN(C)P(=O)(N(C)C)n1c(Nc2ccccc2)nnc1-c1ccccc1`, for which the inhibition is inactive: 4.13%.

With `O=P(Nc1nc2ccc(Cl)cc2s1)(c1ccccc1)c1ccccc1`, the inhibition was inactive: 9.45%.

For the compound `CCOP(=O)(Nc1ccccc1)OCC`, the inhibition was inactive: 2.36%.

Regarding `Cc1cc(SC(NC(=O)c2ccc(F)cc2)C(Cl)(Cl)Cl)ncn1` (stereo unspecified), the inhibition is inactive: 0.41%.

For `Cc1ccc(NP(=O)(Oc2ccccc2F)Oc2ccccc2F)nc1`, the inhibition is inactive: 2.01%.

Take `CN(C(=O)Cc1ccc(Cl)c(Cl)c1)[C@H]1CCCC[C@@H]1N1CCCC1`: the inhibition is inactive: -0.75%.

Consider `CCn1c(=O)n(C2CCN(CC3CCCCCCC3)C[C@H]2CO)c2ccccc21` (stereo partly specified), for which the inhibition was inactive: 1.32%.

As to `CN(C(=O)Cc1ccccc1)C1CC[C@@]2(CCCO2)C[C@@H]1N1CCCC1` (stereo partly specified), the inhibition was inactive: -1.18%.

On to `CCN(N=Nc1nonc1N)c1nonc1N`, for which the inhibition is inactive: -1.43%.

Consider `Nc1cccc2ccc([As](=O)(O)O)cc12`, for which the inhibition is active: 32.9%.

In the case of `NC(=O)c1cc([N+](=O)[O-])cc([N+](=O)[O-])c1N`, the inhibition was inactive: 3.31%.

Take `CN(C(=O)Cc1ccc(Cl)c(Cl)c1)[C@H]1CCCC[C@H]1N1CCCC1`: the inhibition is inactive: 5.08%.

Consider `Cc1ccc(N/C(=N/P(=O)(N2CCOCC2)N2CCOCC2)N2CCOCC2)cc1`, for which the inhibition was inactive: 4.76%.

In the case of `COc1ccccc1OP(=O)(Nc1ccc(C)cn1)Oc1ccccc1OC`, the inhibition was inactive: -7.3%.

`Cc1ccc(OP(=O)(Nc2nccs2)Oc2ccc(C)cc2)cc1`: the inhibition is inactive: 0.4%.

As for `Clc1ccc(Cl)c(NC2=NCC(CBr)S2)c1` (stereo unspecified), the inhibition is inactive: -2.37%.

Regarding `CN1CCCC(OC(=O)C(c2ccccc2)c2ccccc2)C1` (stereo unspecified), the inhibition was inactive: 2.69%.

With `CC(C)CC(=O)NC(Sc1ccc(Cl)cc1)C(Cl)(Cl)Cl` (stereo unspecified), the inhibition was inactive: -6.07%.

Turning to `Nc1cc(N)c2nonc2c1[N+](=O)[O-]`, the inhibition was inactive: -1.86%.

For `Oc1ccccc1CNc1ccccn1`, the inhibition is inactive: 0.18%.

For `O=C(NC(Sc1ccncn1)C(Cl)(Cl)Cl)c1ccccc1` (stereo unspecified), the inhibition was inactive: -5.11%.

On to `COc1ccc(C2=NCC(CBr)S2)cc1` (stereo unspecified), for which the inhibition was inactive: -2.53%.

Regarding `O=[N+]([O-])c1cccc2n[nH]nc12`, the inhibition was inactive: -2.58%.

As for `CC(=O)N1C2C3N(C(C)=O)C1C1N(C(C)=O)C(C(N1C(C)=O)N3C(C)=O)N2C(C)=O`, the inhibition was inactive: 0.17%.

As to `Cc1ccc(NP(=O)(Oc2ccccc2)Oc2ccccc2)nc1`, the inhibition is inactive: -0.54%.

As to `CCc1nc2c(n1)c1c(non1O)c1c2no[n+]1[O-]`, the inhibition is inactive: -5.8%.

For the compound `O=[N+]([O-])c1cc([N+](=O)[O-])c(CCNc2ccccc2)c([N+](=O)[O-])c1`, the inhibition was inactive: -4.84%.

On to `Nc1ccc([As](=O)(O)c2ccc(N)cc2)cc1`, for which the inhibition was inactive: 0.45%.

Consider `C[N+]1=C2C=CC=CC=C2SC12C([N+](=O)[O-])=CC([N+](=O)[O-])=C[C-]2[N+](=O)[O-]` (stereo unspecified), for which the inhibition was inactive: 3.87%.

For `CCN(/C(=N/P(=O)(N1CCOCC1)N1CCOCC1)N1CCOCC1)c1ccc(OC)cc1`, the inhibition was inactive: 4.36%.

Consider `CC(C)=N/N=C(\N)N[N+](=O)[O-]`, for which the inhibition was inactive: -0.98%.

`CC(C)c1nc(Nc2ccccc2)n(P(=O)(N(C)C)N(C)C)n1`: the inhibition is inactive: 1.59%.

As for `CN(C)C(=O)OCCc1n(C)cc[n+]1C`, the inhibition is inactive: 1.05%.

In the case of `c1cc(-c2nn[nH]n2)ccc1-c1nn[nH]n1`, the inhibition is inactive: -2.95%.

As for `CC1CCN(C(=O)Oc2c(Cl)cc(Cl)c3cccnc23)CC1`, the inhibition is inactive: -2%.

As to `O=P1(N(CCCl)CCCl)OCCCS1` (stereo unspecified), the inhibition is inactive: -4.25%.

Turning to `O=C(Nc1cc([As](=O)(O)O)ccc1O)c1ccccc1`, the inhibition was inactive: 8.83%.

With `CC(C)(C)C(=O)NC(Sc1ccncn1)C(Cl)(Cl)Cl` (stereo unspecified), the inhibition was inactive: 1.94%.

In the case of `O=[N+]([O-])c1ncn(CCn2ncnc2[N+](=O)[O-])n1`, the inhibition was inactive: -1.62%.

`O=[N+]([O-])c1cccc(NC2=NCC(CBr)S2)c1` (stereo unspecified): the inhibition was inactive: 4.14%.

On to `COC(=O)C1(C)COP(=O)(Nc2ccccc2)OC1` (stereo unspecified), for which the inhibition was inactive: -7.2%.

In the case of `O=C(O)CNc1ccc([As](=O)(O)O)cc1`, the inhibition is inactive: -4.79%.

On to `Nc1ccc(CCCCOc2ccccc2)cc1`, for which the inhibition is inactive: -2.12%.

For the compound `COc1ccc(N)c([N+](=O)[O-])c1[N+](=O)[O-]`, the inhibition was inactive: -1.3%.

Consider `O=P(Nc1ccccn1)(c1ccc(Br)cc1)c1ccc(Br)cc1`, for which the inhibition is inactive: -2.34%.

With `CN(C)C1(CNC(=O)c2ccc(Cl)c(S(N)(=O)=O)c2)CCCCC1`, the inhibition was inactive: -0.07%.

As for `O=P(Nc1nc2ccccc2s1)(c1ccccc1)c1ccccc1`, the inhibition is inactive: 1.68%.

As to `C[C@H]1OP(=O)(Oc2ccccc2)[C@H](O)[C@H](O)[C@H]1N=[N+]=[N-]` (stereo partly specified), the inhibition was inactive: -1.43%.

On to `O=[N+]([O-])c1ncn(CCn2cnc([N+](=O)[O-])n2)n1`, for which the inhibition was inactive: -5.07%.

With `CC(=O)NC(SC(=S)N(C)C)C(Cl)(Cl)Cl` (stereo unspecified), the inhibition was inactive: 0.64%.

`O=[As](O)(c1ccccc1)c1ccc(O)cc1`: the inhibition is inactive: 4.4%.

For the compound `C/C(N)=N\P(=O)(OCc1ccccc1)OCc1ccccc1`, the inhibition is inactive: 5.78%.

Turning to `Nc1ccc([As](=O)(O)c2ccc([N+](=O)[O-])cc2)cc1`, the inhibition is inactive: 2.68%.

In the case of `C(Cc1nn[nH]n1)Cc1nn[nH]n1`, the inhibition is inactive: 1.78%.

Regarding `O=C(OC1CN2CCC1CC2)c1cccc(Cl)c1` (stereo unspecified), the inhibition is inactive: -0.39%.

Turning to `CC(C)C(=O)NC(Sc1ccccc1)C(Cl)(Cl)Cl` (stereo unspecified), the inhibition was inactive: 2.33%.

For `O=P(Nc1nccs1)(c1ccccc1)c1ccccc1`, the inhibition is inactive: -0.17%.

Consider `c1nnnn1CCn1cnnn1`, for which the inhibition is inactive: -1%.

Turning to `O=P1(Nc2nc3ccc(Cl)cc3s2)COc2ccccc2O1` (stereo unspecified), the inhibition is inactive: 2.65%.

For `CCOc1ccc(C2=NCC(CBr)S2)cc1` (stereo unspecified), the inhibition was inactive: 1.6%.

Regarding `CCc1cc(O)c([N+](=O)[O-])c(C)c1[N+](=O)[O-]`, the inhibition was inactive: 1.95%.

As to `CC(C)(C)C(=O)NC(Sc1ccccc1)C(Cl)(Cl)Cl` (stereo unspecified), the inhibition is inactive: 0.8%.

With `N#C/C(=C\c1ccc(N(CCBr)CCBr)cc1)C(N)=O`, the inhibition is inactive: 2.16%.

Turning to `CC(=O)c1ccc(N2CC2c2ccncc2)cc1` (stereo unspecified), the inhibition is inactive: -0.66%.

Turning to `COC(=O)C1(C)COP(=O)(NCc2ccccc2)OC1` (stereo unspecified), the inhibition is inactive: -5.35%.

`Cc1ccccc1CN(C)C(=O)COC(=O)C(O)(c1ccccc1)c1ccccc1`: the inhibition is inactive: 3.69%.

With `C[C@@H]1C=CCP(=O)(Oc2ccccc2)O1` (stereo partly specified), the inhibition is inactive: 1.52%.

Consider `C[C@H]1OP(=O)(Oc2ccccc2)C[C@@H]2O[C@@H]21` (stereo partly specified), for which the inhibition is inactive: 1.8%.

Turning to `CC(=O)Nc1ccc([As](=O)(O)O)c(O)c1`, the inhibition was inactive: -0.15%.

On to `CC(=O)Nc1ccc(Oc2c([N+](=O)[O-])cc([N+](=O)[O-])cc2[N+](=O)[O-])cc1`, for which the inhibition is inactive: -4.04%.

On to `CCNC(=S)/N=C(\N)N[N+](=O)[O-]`, for which the inhibition was inactive: 1.33%.

As to `O=C(NC1CCS(=O)(=O)C1)NP(=S)(Oc1ccccc1)Oc1ccccc1` (stereo unspecified), the inhibition is inactive: 0.92%.

As for `c1ccc(-c2nn[nH]n2)c(-c2nn[nH]n2)c1`, the inhibition is inactive: 3.6%.

Regarding `Cc1ccc(NP(=O)(Oc2cccc(C)c2)Oc2cccc(C)c2)nc1`, the inhibition was inactive: 1.87%.

Regarding `O=P1(N(CCCl)CCCl)OCCC2CCCCN21` (stereo unspecified), the inhibition is inactive: 0.87%.

Regarding `COC(=O)c1cc2c(s1)N=C(c1ccccc1)N(C)P2(=O)N1CCOCC1` (stereo unspecified), the inhibition was inactive: -1.15%.

With `Cc1ccc(OP(=O)(Nc2ccccn2)Oc2ccc(C)cc2)cc1`, the inhibition is inactive: -2.52%.

On to `CC(=O)NC(SC(=S)N(CC(C)C)CC(C)C)C(Cl)(Cl)Cl` (stereo unspecified), for which the inhibition is inactive: -0.12%.

With `O=C(OC1CN2CCC1CC2)c1ccccc1` (stereo unspecified), the inhibition is inactive: -2.34%.

For the compound `CCC(=O)N1C2C3N(C(=O)CC)C1C1N(C(=O)CC)C(C(N1C(=O)CC)N3C(=O)CC)N2C(=O)CC`, the inhibition is inactive: -1.61%.

Turning to `Cc1ccccc1OP(=O)(Nc1ccccn1)Oc1ccccc1C`, the inhibition is inactive: -5.42%.

Consider `CC(NC(=O)COC(=O)C(O)(c1ccccc1)c1ccccc1)c1ccccc1` (stereo unspecified), for which the inhibition is inactive: 1.66%.

Regarding `CN(C)C(=O)Oc1noc2ccccc12`, the inhibition is inactive: 1.37%.

Take `O=c1c2cc([N+](=O)[O-])ccc2[nH]c2c([N+](=O)[O-])cc([N+](=O)[O-])cc12`: the inhibition is inactive: 4.92%.

As for `CCOP1(=S)c2c(C)nn(CCC#N)c2N=C(c2ccccc2F)N1C` (stereo unspecified), the inhibition was inactive: -3.01%.

In the case of `O=P(Nc1nccs1)(Oc1ccccc1)Oc1ccccc1`, the inhibition was inactive: -0.75%.

Consider `Nc1ccccc1[As](=O)(O)c1ccccc1`, for which the inhibition is inactive: 5.26%.

Take `O=C(O)COc1ccc([As](=O)(O)O)cc1[N+](=O)[O-]`: the inhibition was inactive: 12.2%.

As for `NC(=O)Nc1ccc([As](=O)(O)O)cc1`, the inhibition is inactive: -1.69%.

`CN(C)C(=O)c1cc([N+](=O)[O-])cc2c1-c1c(cc([N+](=O)[O-])cc1[N+](=O)[O-])C2=O`: the inhibition was inactive: 0.51%.

Consider `O=[N+]([O-])c1ccc2c(c1)nnn2O`, for which the inhibition is inactive: -0.45%.

As to `CN(C(=O)Cc1ccc(Cl)c(Cl)c1)[C@H]1CC[C@@]2(CCCO2)C[C@@H]1N1CCCC1`, the inhibition is inactive: -2.68%.

For the compound `N#CCCN(C(=O)COC(=O)C(O)(c1ccccc1)c1ccccc1)c1ccc(F)cc1`, the inhibition is inactive: -2.05%.

Consider `CN(C(=O)Cc1ccccc1)[C@@H]1CC[C@]2(CCCO2)C[C@H]1N1CCCC1`, for which the inhibition was inactive: -5.82%.

With `CCOP1(=S)c2c(C)nn(CCC#N)c2N=C(c2ccc(F)cc2)N1C` (stereo unspecified), the inhibition is inactive: -0.64%.

Take `COc1cc(C(=O)NCC2(N3CCOCC3)CCCCC2)cc(Cl)c1OC(C)C`: the inhibition was inactive: 3.94%.

In the case of `O=[As](O)(O)c1cccnc1`, the inhibition is inactive: -6.68%.

With `CS(=O)(=O)c1ccc(Cl)c(NC(=O)COC(=O)C(O)(c2ccccc2)c2ccccc2)c1`, the inhibition was inactive: 4.21%.

Source of the values: PubChem BioAssay AID743269 (The Scripps Research Institute Molecular Screening Center, 2014).
